Measured values from several laboratories, pooled; numbers as filed in NIAID ChemDB.

Shared fields: whole-cell or culture tests; organism: Candida albicans

Conditions beyond the fields shown may differ between rows. MIC50, MIC90 and the like: level of inhibition, or share of isolates inhibited. Blank or dashed fields: not listed here. ECn is the concentration giving n% inhibition of infection, replication or growth. a–b is a range or a potency band.

structure | read-out | strain or isolate | read by | value
O=C(N/N=C/c1ccccc1[N+](=O)[O-])c1cc(-c2ccc(Br)cc2)nc2ccccc12 | MIC | ATCC 10231 | - | 25–50 µg/mL
CN[C@@H]1[C@H](O[C@@H]2OC[C@@H](O)[C@H](O)[C@H]2O)[C@@H](O)[C@H](O[C@H]2c3cc(C)c(C(=O)N[C@H](C)C(=O)O)c(O)c3-c3c(cc4c(c3O)C(=O)c3cc(OC)cc(O)c3C4=O)[C@@H]2O)O[C@@H]1C | MIC | ATCC 32354 | - | 3.1 µg/mL
O=C1CSC(c2c(F)cccc2F)N1c1ncc(-c2cc3ccccc3oc2=O)o1 | MIC | ATCC 10231 | broth dilution | 30 µg/mL
FC(F)(F)c1ccc(OC(CCn2ccnc2)c2ccccc2)cc1 | MFC | 20 strains | - | 76.8 µg/mL
Cc1ccc(C2SCC(=O)N2c2ncc(-c3cc4ccccc4oc3=O)o2)cc1 | MIC | ATCC 10231 | broth dilution | 25 µg/mL
Clc1ccccc1C(c1ccccc1)(c1ccccc1)n1ccnc1 | MIC | ATCC 90028 | - | 0.5 µg/mL
CCCCCOc1ccc(-c2cc(-c3ccc(C(=O)N[C@H]4C[C@@H](O)[C@@H](O)NC(=O)[C@@H]5[C@@H](O)[C@@H](C)CN5C(=O)[C@H]([C@H](O)CC(N)=O)NC(=O)[C@H]([C@H](O)[C@@H](O)c5ccc(O)c(OS(=O)(=O)O)c5)NC(=O)[C@@H]5C[C@@H](O)CN5C(=O)[C@H]([C@@H](C)O)NC4=O)cc3)no2)cc1 | EC50 | CAF2 | broth dilution | 0.016 µg/mL
CCc1nc(SCC(=O)N/N=C(\C)c2ccc([N+](=O)[O-])cc2)n[nH]1 | MIC | ATCC 90028 | - | 400 µg/mL
COc1ccc(-c2cc(C(=O)N/N=C/c3ccc(Br)cc3)c3cc(Cl)ccc3n2)cc1 | MIC | ATCC 10231 | - | 25–50 µg/mL
Cc1nc(N)nc(N)c1C#CC(C)C | MIC | - | - | 0.8 µg/mL
O=c1[nH]cnc2c(-c3ccc(Br)cc3)n[nH]c12 | MIC | ATCC 10231 | agar diffusion / agar | 250 µg/mL
O=C1CSC(c2ccc3c(c2)OCO3)N1c1ncc(-c2cc3ccccc3oc2=O)o1 | MIC | ATCC 10231 | broth dilution | 18 µg/mL
C[C@H]1[C@H](O)[C@@H](C)/C=C/C=C/C=C/C=C/C=C/C=C/C=C/[C@H](O[C@@H]2O[C@H](C)[C@@H](O)[C@H](N)[C@@H]2O)C[C@@H]2O[C@](O)(C[C@@H](O)C[C@@H](O)CC[C@H](O)[C@@H](O)C[C@@H](O)CC(=O)O[C@H]1C)C[C@H](O)[C@H]2C(=O)O | MIC | 83-2-14 | - | 0.4 µg/mL
CC(C)=CCCC(C)C1CCC2C3CCC4C(CCC(OC(=O)/C=C/c5ccccc5)C4(C)C)C3CCC12C | MIC | ATCC 9002 | XTT / absorbance | 512 µg/mL
COc1cc(CCCO)cc2cc(-c3ccc4c(c3)OCO4)oc12 | MIC | ICB 12 | - | 10 µg/mL
Fc1ccc(OC(CCn2ccnc2)c2ccccc2)c(F)c1 | MFC50 | 20 strains | - | 64 µg/mL
CCSSc1ssc(=S)c1OC | MIC | ATCC 10231 | - | 12.5 µg/mL
Clc1cnc2[nH]ccc2c1 | MIC100 | ATCC 10231 | - | 31.3 µg/mL
O=C(/C=C/c1ccc(Cl)cc1Cl)c1c[nH]c2ccccc12 | MIC | ATCC 90028 | broth dilution | 400 µg/mL
COc1ccc(-c2cc3cc(Cl)cnc3[nH]2)c(C)c1 | MIC100 | ATCC 10231 | - | 250 µg/mL
CC1CCCC[C@H]2C(=O)CC[C@H]3OC(/C=C/C=C/C=C/C(=O)O)=C(C(=O)O1)[C@@H]32 | MIC | - | - | >64 µg/mL
Clc1ccc(OC(CCn2ccnc2)c2ccccc2)cc1 | MFC | 20 strains | - | 9.8 µg/mL
NCCSC(C[N+](=O)[O-])c1cccc(Cl)c1 | MIC | - | - | 100 µg/mL
CCc1nc(SCC(=O)N/N=C(\C)c2ccccc2O)n[nH]1 | MIC | ATCC 90028 | - | 200 µg/mL
NC(=NC1CCCC1)c1ccc(-c2ccc(-c3ccc(C(N)=NC4CCCC4)cc3)o2)cc1 | MIC | Isolate 1866 | - | 12.5 µg/mL
COc1ccc(-c2cc3cc(CCCO)cc(OC)c3o2)cc1OC | MIC | ICB 12 | - | 12 µg/mL
COc1ccc(C(c2ccccc2)(c2ccccc2)n2ccnc2)cc1 | MIC | - | - | 1 µM
COc1cc(C2SCC(=O)N2c2ncc(-c3cc4ccccc4oc3=O)o2)ccc1O | MIC | ATCC 10231 | broth dilution | 28 µg/mL
C/C(=N\NC(=O)CSc1ncn[nH]1)c1ccc(Cl)cc1 | MIC | ATCC 90028 | - | 200 µg/mL
CN(C)CCCNCc1ccc(-c2csc(-c3ccc(Cl)cc3)n2)cc1 | MIC50 | - | - | 1 µg/mL
Cc1cc2c3c(N)nc(N)nc3ccc2n1C | MIC | - | - | 1.6 µg/mL
CCn1c2c(c3ccccc31)C(=O)c1nccc(C)c1C2=O | MIC | - | - | >200 µg/mL
CCCCC1C(=O)N(c2ccccc2)N(c2ccccc2)C1=O | MIC | ATCC 90028 | resazurin | >100 µM
OC(Cn1cncn1)(Cn1cncn1)c1ccc(F)cc1F | MIC90 | 10 strains | - | 0.82 µg/mL
COc1ccc(-c2nnc(-c3ccc(C(C)(C)N)cc3)o2)cc1 | MIC50 | - | - | 4 µg/mL
Cc1nc(N)nc(N)c1C#CC1CCCC1 | MIC | - | - | 0.2 µg/mL
C/C(=N\NC(=O)CSc1ncn[nH]1)c1ccc(O)cc1 | MIC | ATCC 90028 | - | 200 µg/mL
O=C(/C=C/c1ccc(Cl)c(Cl)c1)c1c[nH]c2ccccc12 | MIC | ATCC 90028 | broth dilution | 200 µg/mL
CCc1nc(SCC(=O)N/N=C(\C)c2ccccc2Cl)n[nH]1 | MIC | ATCC 90028 | - | 400 µg/mL
COc1cccc(-c2cc3cccnc3[nH]2)c1 | MIC100 | ATCC 10231 | - | 31.3 µg/mL
O=C(N/N=C/c1ccc(Cl)cc1)c1cc(-c2ccc(Br)cc2)nc2ccccc12 | MIC | ATCC 10231 | - | 50–100 µg/mL
Oc1ccc2c(c1)CCc1ccc(O)c(c1)Oc1ccc(cc1)CCc1cccc(O)c1O2 | MIC80 | SC5314 | broth dilution | 16 µg/mL
CNCCN(C)CCc1ccc(-c2csc(-c3ccc(Cl)cc3)n2)cc1 | MIC50 | - | - | 4 µg/mL
O=C(N/N=C/c1ccc(Cl)cc1)c1cc(-c2ccccc2)nc2ccc(Cl)cc12 | MIC | ATCC 10231 | - | 50–100 µg/mL
Cc1ccc(N2N=C(c3c[nH]c4ccccc34)CC2c2cccc(Cl)c2Cl)cc1 | MIC | ATCC 90028 | broth dilution | 400 µg/mL
Cc1c(NC(=O)CSC(=S)N2CCCCC2C)c(=O)n(-c2ccccc2)n1C | MIC | ATCC 10231 | - | 12.5 µg/mL
CC(C)(C)CSc1cc(=S)ss1 | MIC | Clinical isolate 00-604 | - | 8 µg/mL
O=C(N/N=C/c1ccc(Cl)cc1)c1cc(-c2ccc(Cl)cc2)nc2ccc(Cl)cc12 | MIC | ATCC 10231 | - | 50–100 µg/mL
Clc1cc(Cl)c2c(c1)CCc1ccccc1C2n1ccnc1 | Geometric mean MIC | 12 isolates | - | 0.03 µg/mL
CCC(C(SCCN)c1cc([N+](=O)[O-])ccc1Cl)[N+](=O)[O-] | MIC | - | - | 100 µg/mL
Clc1ccc(C(CCn2ccnc2)Oc2ccc(Cl)cc2Cl)cc1 | MFC90 | 20 strains | - | 4 µg/mL
Cc1nc(N)nc(N)c1C#Cc1ccccc1 | MIC | - | - | 0.4 µg/mL
COc1ccc(-c2cc3cccnc3[nH]2)cc1 | MIC100 | ATCC 10231 | - | 15.6 µg/mL
O=C1CSC(c2ccc(O)cc2)N1c1ncc(-c2cc3ccccc3oc2=O)o1 | MIC | ATCC 10231 | broth dilution | 21 µg/mL
Clc1ccccc1C(c1ccccc1)(c1ccccc1)n1ccnc1 | MIC | - | - | 0.5 µM
O=C(N/N=C/c1ccc([N+](=O)[O-])cc1)c1cc(-c2ccc(Br)cc2)nc2ccc(Cl)cc12 | MIC | ATCC 10231 | - | 50 µg/mL
Cc1ccc(-c2cnc(Nc3ccc(OCCCN4CCN(C)CC4)nc3)c(C(N)=O)n2)c(F)c1 | MIC | - | resazurin | >32 µg/mL
Cc1ccc(-c2cc(C(=O)N/N=C/c3ccccc3)c3cc(Cl)ccc3n2)cc1 | MIC | ATCC 10231 | - | 50–100 µg/mL
CCC(C)CC(C)CCCCCCCCC(=O)N[C@H]1C[C@@H](O)[C@H](NCCN)NC(=O)[C@@H]2[C@@H](O)CCN2C(=O)[C@H]([C@H](O)CCN)NC(=O)[C@H]([C@H](O)[C@@H](O)c2ccc(O)cc2)NC(=O)[C@@H]2C[C@@H](O)CN2C(=O)[C@H]([C@@H](C)O)NC1=O | MIC | 17433 | broth dilution | 0.015 µg/mL
O=C(/C=C/c1cc(Cl)ccc1Cl)c1c[nH]c2ccccc12 | MIC | ATCC 90028 | broth dilution | 200 µg/mL
CCSc1ssc(=S)c1Cl | MIC | ATCC 10231 | - | 250 µg/mL
CCc1nc(SCC(=O)N/N=C(\C)c2ccc(Cl)cc2)n[nH]1 | MIC | ATCC 90028 | - | 400 µg/mL

The first 9 rows once more:

structure | read-out | strain or isolate | read by | value
O=C(N/N=C/c1ccccc1[N+](=O)[O-])c1cc(-c2ccc(Br)cc2)nc2ccccc12 | MIC | ATCC 10231 | - | 25–50 µg/mL
CN[C@@H]1[C@H](O[C@@H]2OC[C@@H](O)[C@H](O)[C@H]2O)[C@@H](O)[C@H](O[C@H]2c3cc(C)c(C(=O)N[C@H](C)C(=O)O)c(O)c3-c3c(cc4c(c3O)C(=O)c3cc(OC)cc(O)c3C4=O)[C@@H]2O)O[C@@H]1C | MIC | ATCC 32354 | - | 3.1 µg/mL
O=C1CSC(c2c(F)cccc2F)N1c1ncc(-c2cc3ccccc3oc2=O)o1 | MIC | ATCC 10231 | broth dilution | 30 µg/mL
FC(F)(F)c1ccc(OC(CCn2ccnc2)c2ccccc2)cc1 | MFC | 20 strains | - | 76.8 µg/mL
Cc1ccc(C2SCC(=O)N2c2ncc(-c3cc4ccccc4oc3=O)o2)cc1 | MIC | ATCC 10231 | broth dilution | 25 µg/mL
Clc1ccccc1C(c1ccccc1)(c1ccccc1)n1ccnc1 | MIC | ATCC 90028 | - | 0.5 µg/mL
CCCCCOc1ccc(-c2cc(-c3ccc(C(=O)N[C@H]4C[C@@H](O)[C@@H](O)NC(=O)[C@@H]5[C@@H](O)[C@@H](C)CN5C(=O)[C@H]([C@H](O)CC(N)=O)NC(=O)[C@H]([C@H](O)[C@@H](O)c5ccc(O)c(OS(=O)(=O)O)c5)NC(=O)[C@@H]5C[C@@H](O)CN5C(=O)[C@H]([C@@H](C)O)NC4=O)cc3)no2)cc1 | EC50 | CAF2 | broth dilution | 0.016 µg/mL
CCc1nc(SCC(=O)N/N=C(\C)c2ccc([N+](=O)[O-])cc2)n[nH]1 | MIC | ATCC 90028 | - | 400 µg/mL
COc1ccc(-c2cc(C(=O)N/N=C/c3ccc(Br)cc3)c3cc(Cl)ccc3n2)cc1 | MIC | ATCC 10231 | - | 25–50 µg/mL